Measured values from several laboratories, pooled; numbers as filed in NIAID ChemDB.

Shared fields: toxicity to cultured cells; cell line: CEM; read by: MTT; read-out: CC50

CCn is the concentration with n% toxicity to the cells.

compound,value
Cn1cc(C(=O)O)c(=O)c2cc(F)c(N3CC=C(c4ccccc4)CC3)c(C(F)(F)F)c21,1.8 µM
CN(CC(=O)Nc1ccc(F)cc1)C(=O)COC(=O)c1ccccc1SCC(=O)N1CCCC1,>68.3 µM
CC(C)=CCC[C@]1(C)C=Cc2c(ccc3c2C(=O)C(=O)C(C2=C(Cl)C(=O)c4ccccc4C2=O)=C3O)O1,2.7 µM
Cc1cn([C@H]2C[C@H](N=[N+]=[N-])[C@@H](CO)O2)c(=O)[nH]c1=O,>1 µM
COc1ccc(C(=O)/C=C/c2cc3ccc(Cl)c(C)c3nc2Cl)c(Br)c1,43.09 µM
CC(=O)ONc1ccc(S(=O)(=O)N(CC(C)C)C[C@@H](O)[C@H](Cc2ccccc2)NC(=O)[C@H](CC(C)C)N2C(=O)c3ccccc3C2=O)cc1,>100 µM
O=P(O)(O)OP(=O)(O)OP(=O)(O)OP(=O)(O)O,>100 µg/mL
Cc1c(O)cccc1C(=O)N[C@@H](CSc1ccccc1)[C@@H](CN1C[C@H]2CCCC[C@H]2C[C@H]1C(=O)NC(C)(C)C)OC(=O)CCCCOc1ccc(C[C@H](NC(=O)OC(C)(C)C)C(=O)O)cc1,>100 µM
COc1cccc2c1C(=O)C(C1=C(Cl)C(=O)c3ccccc3C1=O)=C(Cl)C2=O,11 µM
O=c1[nH]c(=O)n([C@H]2C=C[C@@H](CO)O2)cc1CCO,>1 µM
COc1cc(OC)c2c(=O)cc(-c3ccc(O)c(N)c3)n(C)c2c1,>100 µM
Cc1nn(-c2cccc(C(F)(F)F)c2)c(C)c1C(=O)C(=O)N(C)CC(=O)Nc1cccc(F)c1,15 µM
NCCCc1cn([C@H]2C=C[C@@H](CO)O2)c(=O)[nH]c1=O,630 µM
COc1cc(OC)c2c(=O)cc(-c3ccc(OCCCN4CCCCC4)c(NC(=O)CCCN(C)C)c3)n(C)c2c1,>100 µM
CC(C)(C)NC(=O)[C@@H]1CN(Cc2cccnc2)CCN1C[C@H](C[C@@H](Cc1ccccc1)C(=O)N[C@H]1c2ccccc2C[C@H]1O)OC(=O)NCCCCOc1ccc(C[C@H](N)C(=O)O)cc1,>100 µM
O=C(Cc1cn([C@H]2C=C[C@@H](CO)O2)c(=O)[nH]c1=O)NCCCCCCCCCCNC(=O)c1c2ccccc2nc2ccccc12,>10 µM
CC(C)(C)NC(=O)[C@@H]1CN(Cc2cccnc2)CCN1C[C@H](C[C@@H](Cc1ccccc1)C(=O)N[C@H]1c2ccccc2C[C@H]1OC(=O)CCCCOc1ccc(C[C@H](NC(=O)OC(C)(C)C)C(=O)O)cc1)OC(=O)CCCCOc1ccc(C[C@H](NC(=O)OC(C)(C)C)C(=O)O)cc1,>100 µM
CC(C)CN(C[C@@H](O)[C@H](Cc1ccccc1)NC(=O)CCCc1c[nH]c2ccccc12)S(=O)(=O)c1ccc(Br)cc1,34.8 µM
COc1ccc(C(=O)/C=C/c2cc3ccc(Cl)c(C)c3nc2Cl)cc1OC,39.7 µM
CCOC(=O)N1CCC(NC(=O)CN(C)C(C)c2ccc(F)cc2)CC1,>91.3 µM
COC1=C(C2=C(C3=C(O)C(=O)c4ccccc4C3=O)C(=O)c3ccccc3C2=O)C(=O)c2ccc3c(c2C1=O)C=CC(C)(C)O3,17 µM
CCCCCCCCCCCCCCCC(=O)OCC(COC(=O)CCCCCCCCCCCCCCC)OC(=O)CCC(=O)O[C@@H](C[C@@H](Cc1ccccc1)C(=O)N[C@H]1c2ccccc2C[C@H]1OC(=O)CCC(=O)OC(COC(=O)CCCCCCCCCCCCCCC)COC(=O)CCCCCCCCCCCCCCC)CN1CCN(Cc2cccnc2)C[C@H]1C(=O)NC(C)(C)C,>100 µM
O=C(NCCCc1cn([C@H]2C=C[C@@H](CO)O2)c(=O)[nH]c1=O)C(F)(F)F,>100 µM
CC(=O)ONc1ccc(S(=O)(=O)N(Cc2ccccc2)C[C@@H](O)[C@H](Cc2ccccc2)NC(=O)CCc2c[nH]c3ccccc23)cc1,>100 µM
O=C1C(Cl)=C(C2=C(Cl)C(=O)c3ccccc3C2=O)C(=O)c2ccccc21,5.4 µM
CC(C)C[C@@H](C(=O)N[C@@H](Cc1ccccc1)[C@H](O)CN(CC(C)C)S(=O)(=O)c1ccc(Br)cc1)N1C(=O)c2ccccc2C1=O,>100 µM
Cc1cc(F)cc(CNC(=O)Cc2c(C)nc(C)[nH]c2=O)c1,>110 µM
CC(=O)ONc1ccc(S(=O)(=O)N(CC(C)C)C[C@@H](O)[C@H](Cc2ccccc2)NC(=O)CN2C(=O)c3ccccc3C2=O)cc1,>100 µM
COc1ccc2c(c1)C(=O)C(Br)=C(C1=C(O)c3ccccc3C(=O)C1=O)C2=O,5.7 µM
COc1cc(OC)c2c(=O)cc(-c3ccc(OCCCN4CCCCC4)cc3)n(C)c2c1,>100 µM
Cc1c(Cl)ccc2cc(/C=C/C(=O)c3ccc(Br)cc3)c(Cl)nc12,34.08 µM
Nc1ccn([C@@H]2O[C@H](CO)[C@@H](O)[C@H]2S)c(=O)n1,305 µM
CC(C)(C)NC(=O)[C@@H]1C[C@@H]2CCCC[C@@H]2CN1C[C@@H](OC(=O)NCCCCOc1ccc(C[C@H](N)C(=O)O)cc1)[C@H](Cc1ccccc1)NC(=O)[C@H](CC(N)=O)NC(=O)c1ccc2ccccc2n1,>100 µM
COc1ccc2c(c1)C(=O)C(Cl)=C(C1=C(O)c3ccccc3C(=O)C1=O)C2=O,12 µM
CC(C)CN(C[C@@H](O)[C@H](Cc1ccccc1)NC(=O)Cc1c[nH]c2ccccc12)S(=O)(=O)c1ccc(Br)cc1,80.4 µM
Cc1ccc(/C=C/c2cc3ccc(Cl)c(C)c3nc2Cl)s1,63.03 µM
CC(C)C[C@H](NC(=O)OC(C)(C)C)C(=O)O[C@H](CN1C[C@H]2CCCC[C@H]2C[C@H]1C(=O)NC(C)(C)C)[C@H](Cc1ccccc1)NC(=O)[C@H](CC(N)=O)NC(=O)c1ccc2ccccc2n1,>100 µM
COc1cc(OC)c2c(=O)cc(-c3ccc(OCCCN)c(N)c3)n(C)c2c1,>100 µM
CSS[C@H]1C[C@H](n2cc(C)c(=O)[nH]c2=O)O[C@@H]1CO,155 µM

For reference, 5 entries again:

compound,value
CCOC(=O)N1CCC(NC(=O)CN(C)C(C)c2ccc(F)cc2)CC1,>91.3 µM
CC(C)C[C@@H](C(=O)N[C@@H](Cc1ccccc1)[C@H](O)CN(CC(C)C)S(=O)(=O)c1ccc(Br)cc1)N1C(=O)c2ccccc2C1=O,>100 µM
Cc1nn(-c2cccc(C(F)(F)F)c2)c(C)c1C(=O)C(=O)N(C)CC(=O)Nc1cccc(F)c1,15 µM
COc1cc(OC)c2c(=O)cc(-c3ccc(O)c(N)c3)n(C)c2c1,>100 µM
CC(C)CN(C[C@@H](O)[C@H](Cc1ccccc1)NC(=O)Cc1c[nH]c2ccccc12)S(=O)(=O)c1ccc(Br)cc1,80.4 µM

Lines come from different laboratories, so protocols vary.